System: S. invicta workers
Assay: GC-MS analysis of cuticular chemicals of B. bassiana-killed versus freeze-killed workers
Parameters: species or system Solenopsis invicta
Conditions: for change on ant cuticle after infection: B. bassiana-killed versus freeze-killed workers; for concentration in B. bassiana-killed ants compared to freeze-killed ants (in words): fatty acids quantified by GC-MS

Row | Compound | change on ant cuticle after infection | concentration in B. bassiana-killed ants compared to freeze-killed ants (in words)
1 | CCCCCCCC/C=C/CCCCCCCCCC(=O)O [trans-11-eicosenoic acid] | decreases | significantly higher in freeze-killed ants
2 | CCCCC/C=C\C/C=C\CCCCCCCC(=O)O [linoleic acid, cis,cis-9,12-linoleic acid] | no change | did not change
3 | CC(=O)C(C)=O [2,3 butanedione] | decreases | 
4 | 3-octenol | increases | 
5 | CCCCCCCC/C=C\CCCCCCCC(=O)O [oleic acid] | no change | did not change
6 | CC(=O)C(C)O (stereo not drawn) [acetoin] | decreases | 
